# Screening data, single-dose tests

The values are deposited in ChEMBL (CHEMBL3988442, “University of Dundee, Small-Polar-MMV Screening Library” (2021)).

Each number is a percent effect as filed. The record does not define 0% and 100%; most values in the screen are far below 50% and negative numbers occur (in some assays of this library far below -100). This is part of a subset picked to be rich in strong results. Two or more numbers in one place are separate tests of the same structure; such repeats can differ widely. A dash means the value is not listed here; it may have been measured.

Mtb cholesterol medium: 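Growth of Mycobacterium tuberculosis over 4 days (cholesterol / DPPC medium with tyloxapol); the read-out is not stated. Compounds at 50 µM. Higher reads as more growth inhibition (inferred: compounds with an IC50 in retests scored well above the rest). Size under these conditions: about 69,000 compounds, about 370 of them at 50% or above in at least one test.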
Mtb glucose medium: 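Phenotypic screen: M. tuberculosis growth, glucose 7H9 medium, 3 days; the read-out is not stated. Compounds at 50 µM. Higher reads as more growth inhibition (inferred: compounds with an IC50 in retests scored well above the rest). Size under these conditions: about 69,000 compounds, about 760 of them at 50% or above in at least one test.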

| # | SMILES | Mtb cholesterol medium | Mtb glucose medium |
|---|---|---|---|
| 1 | `CC(C)(C)C(=O)NS(=O)(=O)c1ccc(C#N)c(C(F)(F)F)c1` | -2.219% | 5.089% |
| 2 | `O=C1C(n2nnc(-c3ccsc3)n2)CCN1CC(F)(F)F` (centres undefined) | 17.1% | 29.14% |
| 3 | `CCOC(=O)c1c(NC(=O)CN2CCN(C(C)=O)CC2)sc(C)c1C` | -13.33% | 11.37% |
| 4 | `CC1(C)CN(C(=O)CC2CCS(=O)(=O)CC2)C[C@]1(C)O` | - | 15.08% |
| 5 | `CC(NCc1ccc(F)cc1)c1ccc(OCC(=O)NC2CC2)cc1` (centres undefined) | - | -47.86% |
| 6 | `COC(CNC(=O)N1CCC(n2cncn2)CC1)c1ccccc1` (centres undefined) | - | -9.023% |
| 7 | `Cc1ccc(O)c(CN(CCCn2ccnc2)Cc2ccc(C)s2)c1.O=C(O)CC(O)(CC(=O)O)C(=O)O` | - | 53.05% |
| 8 | `CC1(C)CN(Cc2nnc(-c3cccnc3)o2)CC[C@]1(C)O` | - | 6.085% |
| 9 | `COc1ccccc1OCCNC(=O)NCC(C)C` | - | -16.65% and 0.8066% |
| 10 | `Cc1cc2[nH]c(O)nc2cc1NCc1ccc(F)cc1` | - | 22.31% and 59.64% |
| 11 | `Fc1cccc(CN2CCC[C@H](Cn3nnc(-c4ccccn4)n3)C2)c1` | -24.66% and -18% | 8.117% |
| 12 | `[H][C@]12CC[C@]([H])(CN(c3ncnc4ccsc34)C1)N(C)C2=O` | - | -0.3028% and -48.12% |
| 13 | `COC(=O)c1ccc(CN(C)C(=O)c2cnsn2)cc1` | 30.72% | 44.44% |
| 14 | `Cc1cc(C)n(CCN2CCN(C(=O)c3ccc(Br)o3)CC2)n1` | - | 4.793% and 13.62% |
| 15 | `CN1CCN(Cc2cccnc2)C(=O)C12CCN(Cc1ccco1)CC2.O=C(O)C(F)(F)F.O=C(O)C(F)(F)F.O=C(O)C(F)(F)F` | - | 16.99% |
| 16 | `Cc1c(C(=O)NCC(F)(F)F)nnn1-c1ccccc1Cl` | 25.48% | 18.28% |
| 17 | `CN(C)CCN1CCCC12CCN(C(=O)c1cccnc1)CC2.O=C(O)C(F)(F)F.O=C(O)C(F)(F)F` | 8.975% | - |
| 18 | `CCN(C)C(=O)Nc1cc(F)c(OC)cc1F` | -11.39% | -52.14% |
| 19 | `O=C(O)C(F)(F)F.[H][C@@]12C[C@@H](c3nc(C4CC4)cs3)O[C@]1([H])CN(c1ncc(F)cn1)C2` | - | 59.9% |
| 20 | `Cc1cc(C(=O)N2CCCC(c3nccn3Cc3cscn3)C2)on1` (centres undefined) | - | 52.72% |
| 21 | `COc1cc(C(=O)NCCCc2ccccc2)on1` | 54.57% | 54.04% and 37.91% |
| 22 | `O=C(c1csc(-c2nnc[nH]2)n1)N1CCCCC1Cn1cccn1` (centres undefined) | 10.88% | - |
| 23 | `CC(C)c1nc(CN(C)S(=O)(=O)c2cccs2)cs1` | -4.496% | 3.739% and 1.785% |
| 24 | `CC(=O)N1CCC(Nc2ccc(Br)cc2C#N)C1` (centres undefined) | - | 2.55% and 2.654% |
| 25 | `CS(=O)(=O)NC1CCN(C(=O)NCCNc2ccccn2)CC1` | -21.77% | - |
| 26 | `CN1CCCC(c2cccc(-c3cccc(F)c3)n2)C1` (centres undefined) | 43.64% | 38.8% |
| 27 | `Cc1ccc(S(=O)(=O)NC(C)(C)CN)c(F)c1.Cl` | - | 25.19% and 2.006% |
| 28 | `CC(C)N1CCN(C(=O)c2csc3nc(-c4ccc(Cl)cc4)cn23)CC1` | 23.93% | -5.649% |
| 29 | `OCCN1CCN(Cc2coc(-c3cccc(Cl)c3)n2)CC1` | - | -17.2% |
| 30 | `C=C(C)CSc1nnc(CCNC(=O)OC(C)(C)C)o1` | 57.6% | 54.65% |
| 31 | `N#CC1(C(=O)NCc2ccc(F)cc2)CCCC1` | -17.3% | - |
| 32 | `CN(C)[C@H]1CCN(c2nc(C(C)(C)C)nc3c2cnn3C)C1` | - | 57.17% |
| 33 | `[H][C@]12CC[C@]([H])(CN(c3ncnc4ccsc34)C1)N(CC1CC1)C2=O` | - | 21.41% and 112.2% |
| 34 | `C[S+]([O-])c1nncn1CC(=O)c1ccc(OC(F)F)cc1` (centres undefined) | 15.89% | 5.842% and -36.96% |
| 35 | `CCOc1nnc(CN2CCN(CCOC)CC2)s1` | -8.32% and -17.38% | - |
| 36 | `CC1Oc2c(cccc2C(=O)N2CCCCCC2)NC1=O` (centres undefined) | -7.945% | - |
| 37 | `Cc1ccccc1CN1CCCN(S(=O)(=O)N(C)C2CCCCC2)CC1` | - | 21.29% and 68.47% |
| 38 | `Cc1csc2ncc(-c3ccnc(N4CCCN(C)CC4)n3)c(=O)n12` | - | 9.329% |
| 39 | `COc1ccc2c(c1)CN(c1cc(N3CCCC3CO)ncn1)CC2` (centres undefined) | - | 55.04% |
| 40 | `COCCNS(=O)(=O)c1cccc2c1CN(C(=O)c1ccoc1)CC2` | - | 97.94% and -7.849% |
| 41 | `Cc1ccc(N2CCCN(C(=O)CC3C=CCC3)CC2)nn1` (centres undefined) | -0.6294% | 0.232% and 7.806% |
| 42 | `COC(=O)COn1c(OC)nc2ccccc2c1=O` | - | -10.49% |
| 43 | `Cc1nc(C)c(C(=O)N2CCCc3c(F)cccc32)o1` | -4.507% | - |
| 44 | `OCc1ccc(-c2c(-c3ccccc3)ncn2CCN2CCOCC2)o1` | - | -16.64% |
| 45 | `CCc1ccc(C(=O)N2CCN(c3nc(C)cc(OC)n3)CC2)o1` | - | 53.67% |
| 46 | `CCN(Cc1noc(CC(C)C)n1)Cc1ccccc1Cl` | - | 45.52% |
| 47 | `Cc1nc(COCc2cnc3n2CCN(C2CCC2)C3C)cs1.O=C(O)C(F)(F)F` (centres undefined) | - | 27.19% |
| 48 | `COCCCNS(=O)(=O)c1cc(Br)sc1C` | - | 15.58% |
| 49 | `O=C(c1ccncc1)N1CCCC(c2ncncc2-c2ccncc2)C1` (centres undefined) | -16.95% | - |
| 50 | `CSCCC1c2nc[nH]c2CCN1Cc1cc(Cl)ccc1O` (centres undefined) | - | 56.95% |
| 51 | `NC(=O)COc1ccc(CNCc2ccc(Cl)c(F)c2)cc1` | -4.553% | -13.76% |
| 52 | `Cc1cc2c(=O)n3c(nc2s1)CCN(C(=O)c1scnc1C)CC3` | - | 21.29% |
| 53 | `Cn1cc(NC(=O)c2cc[nH]n2)cc(Cl)c1=O` | 82.38% | - |
| 54 | `Cc1nc(O)c2c(n1)CCN(Cc1cc(C)sc1C)CC2` | 13.52% | - |
| 55 | `CO[C@@H]1CCN(Cc2nccs2)C[C@@H]1Cc1ccccc1.O=C(O)C(F)(F)F` | - | 28.81% |
| 56 | `Cc1nc(NC2CCCC2)cc(C2CCN2c2ncccn2)n1` (centres undefined) | - | 7.248% |
| 57 | `O=C(NCC1(c2ccc(F)cc2)CC1)N1CCC2(CCOC2)C1` (centres undefined) | - | -1.736% and 62.04% |
| 58 | `Cc1ccc(-n2nnc(C(=O)NCC3CCCCC3)n2)cc1` | 10.3% | 8.106% and -4.949% |
| 59 | `CCOC(=O)N1CCC(Oc2ccc(C(F)(F)F)cn2)CC1` | 35.52% | 34.55% |
| 60 | `N#Cc1ccc(N2CCCN(CC(N)=O)CC2)cc1` | - | 15.04% |
| 61 | `O=C(c1cccc2cc[nH]c12)N1CCC2(CCOC2)C1` (centres undefined) | - | -19.25% |
| 62 | `COCCCNC(=O)c1cc(C(C)C)nc(N2CCCC2)n1` | - | -3.17% |
| 63 | `O=C(c1cncc2ccccc12)N1CCC[C@@H]1CO` | - | 8.602% |
| 64 | `CCc1[nH]c2c(CNc3cncc(C(=O)OC)n3)cc(C)cc2c1C` | 3.758% | -54.69% |
| 65 | `CC(C)c1nc(CN2CCOCC2)cs1` | - | -19.86% |
| 66 | `O=C(NCc1csc(Br)c1)c1cnccn1` | 22.26% | 35.34% |
| 67 | `Fc1ccc(COCC2CCN(Cc3ccccn3)CC2)cc1.O=C(O)C(=O)O` | 13.53% | 21.98% |
| 68 | `CC1CCCCN1C(=O)COCc1nc(-c2ccncc2)no1` (centres undefined) | - | 124.3% |
| 69 | `CCn1nc(C)c2nc(C(C)C)nc(NCC(C)C)c21` | - | 62.72% |
| 70 | `CN(C)C(=O)CN1CCCC1c1cccc(Cc2ccccc2F)n1` (centres undefined) | - | 45.54% |
| 71 | `Cc1nnnn1-c1cc(NCc2cc(C#N)ccc2F)ccc1F` | 3.626% | 32.63% |
| 72 | `O=C(NC[C@@H]1CCCO1)c1cc(Br)cnc1N1CCCCC1` | - | -19.13% |
| 73 | `CCC1CN(C(=O)c2csc3nc(-c4ccc(Cl)cc4)cn23)CCN1` (centres undefined) | 57.98% | 73% |
| 74 | `COc1cccc(-n2nnc(C(=O)N3CCCC3)c2C)c1` | 8.633% | -10.39% |
| 75 | `O=C(O)C(F)(F)F.[H][C@@]12CN(Cc3cccs3)C[C@]1([H])C(=O)N(c1ccsc1)C2` | 43.55% | 54.89% |
| 76 | `Cc1cccc(OCCN2CCN(Cc3noc(C)n3)CC2)c1` | -2.723% | 19.14% |
| 77 | `COc1cccc(S(=O)(=O)CCN2CCN(CCO)CC2)c1` | 20.71% | 22.19% |
| 78 | `c1cc(-c2noc([C@@H]3Cc4nc[nH]c4CN3)n2)ccn1` | - | -35.96% and 2.394% |
| 79 | `Cl.Clc1cccc(N[C@H]2CCCN[C@H]2Cc2ccccc2)c1` | 111.3% | 116.2% |

8 of the entries, repeated:

* C[S+]([O-])c1nncn1CC(=O)c1ccc(OC(F)F)cc1 (centres undefined) : Mtb cholesterol medium: 15.89%; Mtb glucose medium: 5.842% and -36.96%
* COc1ccc2c(c1)CN(c1cc(N3CCCC3CO)ncn1)CC2 (centres undefined) : Mtb glucose medium: 55.04%
* NC(=O)COc1ccc(CNCc2ccc(Cl)c(F)c2)cc1 : Mtb cholesterol medium: -4.553%; Mtb glucose medium: -13.76%
* CSCCC1c2nc[nH]c2CCN1Cc1cc(Cl)ccc1O (centres undefined) : Mtb glucose medium: 56.95%
* COCCCNC(=O)c1cc(C(C)C)nc(N2CCCC2)n1 : Mtb glucose medium: -3.17%
* Cc1cccc(OCCN2CCN(Cc3noc(C)n3)CC2)c1 : Mtb cholesterol medium: -2.723%; Mtb glucose medium: 19.14%
* C=C(C)CSc1nnc(CCNC(=O)OC(C)(C)C)o1 : Mtb cholesterol medium: 57.6%; Mtb glucose medium: 54.65%
* CC(NCc1ccc(F)cc1)c1ccc(OCC(=O)NC2CC2)cc1 (centres undefined) : Mtb glucose medium: -47.86%